Values joined by “and” are separate entries in the source; they are usually repeats but may differ in a detail not shown here. Equal entries are not always repeated.
Molecular target: recombinant mouse α-synuclein amyloid fibrils (mouse, UniProt O55042 1-140)

B1: recombinant full-length mouse PrP MoPrP(23-231) (natural protein)
chain: not shown
  koff: 0.0041 s⁻¹ and 0.00047 s⁻¹
